From paper doi:10.1101/2023.09.24.559214

Experiments:
[1] = biological target: BA.2.86-V2 soluble spike protein (SARS-CoV-2); assay: SPR
[2] = biological target: XBB.1.5 soluble spike protein (SARS-CoV-2); assay: SPR

“dimeric human-ACE2-Fc protein (from UniProt Q9BYF1) (Fc fusion)” gave a Kd [1] of 600 pM and a Kd [2] of 1340 pM.
